Measured values from several laboratories, pooled; numbers as filed in NIAID ChemDB.

Shared fields: target-level tests

Inhibition is in % at the dose shown (toxicity tests: loss of growth or viability). ICn is the concentration giving n% inhibition. Neighbouring rows are from separate reports. a–b is a range or a potency band.

CNC(=O)c1c(-c2ccc(F)cc2)oc2cc(-c3c(C)noc3COC)c(OC)cc12 ; agent: Hepatitis C virus ; target: Nonstructural protein 5B ; read-out: IC50 ; value: ≤0.5 µM
COc1nc(Nc2ccc3cn[nH]c3c2)nc(N2CCOCC2)n1 ; agent: Hepatitis C virus ; target: Nonstructural protein 5B ; read-out: inhibition ; tested at: 0.1 µg/mL ; value: 30%
COc1ccc(-c2ccc(Cl)cc2)c(-c2ccc3cc(-c4nc5cc(C(=O)O)ccc5n4CCN(C)C)ccc3n2)c1 ; agent: Hepatitis C virus ; target: NS5B polymerase ; read-out: inhibition ; tested at: 100 µM ; value: 89.85%
C=Cc1ccccc1S(=O)(=O)Nc1cc(-c2ccccc2)sc1C(=O)O ; agent: Hepatitis C virus ; target: NS3 ATPase ; read-out: IC50 ; value: 5–20 µM
O=C(O)c1ccc2c(c1)nc(-c1ccc3nc(-c4cnn(-c5ccccc5)c4)ccc3c1)n2C1CCCCC1 ; agent: Hepatitis C virus ; target: NS5B polymerase ; read-out: inhibition ; tested at: 33 µM ; value: 99.77%
O=C(O)C[C@H](Cc1ccccc1)NC(=O)c1cnn2c(C3CCCCC3)c(-c3ccc(F)cc3F)cnc12 ; agent: Hepatitis C virus ; target: RNA-dependent RNA polymerase ; read-out: IC50 ; value: 1–10 µM
COc1nc(Nc2ccc3[nH]ncc3c2)nc(N2CCC(C(N)=O)CC2)n1 ; agent: Hepatitis C virus ; target: Nonstructural protein 5B ; read-out: inhibition ; tested at: 1 µg/mL ; value: 48%
CC[C@@H](C=O)NC(=O)[C@@H]1C[C@@H](OCc2ccccc2)CN1C(=O)[C@@H](NC(=O)c1ccccc1)C(C)C ; agent: Hepatitis C virus ; target: NS3 protease ; read-out: Ki ; value: 1–100 µM
COc1nc(Nc2ccc3cn[nH]c3c2)nc(NN2CCOCC2)n1 ; agent: Hepatitis B virus ; target: DNA polymerase ; read-out: inhibition ; tested at: 0.01 µg/mL ; value: 27%
CCC(NC(=O)Nc1cccc(-c2nc(C(=O)O)c(O)c(=O)[nH]2)c1)c1ccccc1 ; agent: Hepatitis C virus ; target: HCV polymerase ; read-out: IC50 ; value: <100 µM
O=C(O)c1ccc2c(c1)nc(-c1ccc3nc(-c4ccc(N5CCOCC5)cc4)ccc3c1)n2C1CCCCC1 ; agent: Hepatitis C virus ; target: NS5B polymerase ; read-out: inhibition ; tested at: 33 µM ; value: 96.25%
CNC(=O)c1c(-c2ccc(F)cc2)oc2cc(-c3ccncc3)c(OC(C)C)cc12 ; agent: Hepatitis C virus ; target: Nonstructural protein 5B ; read-out: IC50 ; value: ≤0.5 µM
Cc1ccc(S(=O)(=O)Nc2cc(-c3ccc(C#N)cc3)sc2C(=O)O)cc1 ; agent: Hepatitis C virus ; target: NS3 ATPase ; read-out: IC50 ; value: 5–20 µM
COc1nc(Nc2ccc3[nH]ncc3c2)nc(N2CCN(CCO)CC2)n1 ; agent: Hepatitis C virus ; target: Nonstructural protein 5B ; read-out: inhibition ; tested at: 0.1 µg/mL ; value: 22%
CCOC(=O)c1cc2nc(-c3ccc(Cl)cc3)cc(-c3ccc(Cl)cc3)n2n1 ; agent: Hepatitis C virus ; target: RNA-dependent RNA polymerase ; read-out: IC50 ; value: >10 µM
COc1nc(Nc2ccc3[nH]ncc3c2)nc(N2CCOCC2)n1 ; agent: Hepatitis B virus ; target: DNA polymerase ; read-out: inhibition ; tested at: 0.1 µg/mL ; value: 50%
Cc1nc(-c2ccc(Cl)cc2)sc1-c1ccc2cc(-c3nc4cc(C(=O)O)ccc4n3C3CCCCC3)ccc2n1 ; agent: Hepatitis C virus ; target: NS5B polymerase ; read-out: inhibition ; tested at: 100 µM ; value: 103%
CCOC(=O)c1cccc(-c2cc(NS(=O)(=O)c3ccccc3C)c(C(=O)O)s2)c1 ; agent: Hepatitis C virus ; target: NS3 ATPase ; read-out: IC50 ; value: 5–20 µM
COc1ccc(-c2ccc(Cl)cc2)c(-c2ccc3cc(-c4nc5cc(C(=O)O)ccc5n4C4CCCC4)ccc3n2)c1 ; agent: Hepatitis C virus ; target: NS5B polymerase ; read-out: inhibition ; tested at: 100 µM ; value: 99.75%
COc1nc(NCCCn2ccnc2)nc(Nc2ccc3cn[nH]c3c2)n1 ; agent: Hepatitis B virus ; target: DNA polymerase ; read-out: inhibition ; tested at: 0.01 µg/mL ; value: 25%
O=C(CNc1ccsc1-c1nc(C(=O)O)c(O)c(=O)[nH]1)NCc1ccccc1 ; agent: Hepatitis C virus ; target: HCV polymerase ; read-out: IC50 ; value: <25 µM
CC[C@@H](C=O)NC(=O)[C@@H]1C[C@@H](OCc2ccccc2)CN1C(=O)[C@@H](NC(=O)c1c2c(nc3ccccc13)CCCC2)C(C)C ; agent: Hepatitis C virus ; target: NS3 protease ; read-out: Ki ; value: 1–100 µM
NC(=O)C(CC(=O)O)NC(=O)c1cnn2c(C3CCCCC3)c(-c3ccc(F)cc3F)cnc12 ; agent: Hepatitis C virus ; target: RNA-dependent RNA polymerase ; read-out: IC50 ; value: <1 µM
COC(=O)[C@@H]1CCCN1c1nc(Nc2ccc3cn[nH]c3c2)nc(OC)n1 ; agent: Hepatitis B virus ; target: DNA polymerase ; read-out: inhibition ; tested at: 0.01 µg/mL ; value: 0%
O=C(O)c1nc(-c2sccc2NC(=O)N2CCC(Cc3ccccc3)CC2)[nH]c(=O)c1O ; agent: Hepatitis C virus ; target: HCV polymerase ; read-out: IC50 ; value: <25 µM
Cc1cc(-c2nc3cc(C(=O)O)ccc3n2C2CCCCC2)cc2ccc(-c3ccccc3-c3ccccc3)nc12 ; agent: Hepatitis C virus ; target: NS5B polymerase ; read-out: inhibition ; tested at: 100 µM ; value: 97.78%
O=C(Nc1ccsc1-c1nc(C(=O)OCCN2CCOCC2)c(O)c(=O)[nH]1)c1ccccc1 ; agent: Hepatitis C virus ; target: HCV polymerase ; read-out: IC50 ; value: <50 µM
CC[C@H](NC(=O)[C@H](CC(C)C)NC(=O)[C@@H](NC(=O)[C@@H](NC(=O)c1cnccn1)C(C)C)C(C)C)C(=O)C(=O)N[C@@H](C)c1ccccc1 ; agent: Hepatitis C virus ; target: NS3 protease ; read-out: Ki ; value: 1–100 µM
O=C(O)c1ccc2c(c1)nc(-c1ccc3nc(-c4cc(Br)ccc4O)ccc3c1)n2C1CCCCC1 ; agent: Hepatitis C virus ; target: NS5B polymerase ; read-out: inhibition ; tested at: 33 µM ; value: 97.99%
C[C@H](NC(=O)Nc1ccsc1-c1nc(C(=O)O)c(O)c(=O)[nH]1)c1ccccc1 ; agent: Hepatitis C virus ; target: HCV polymerase ; read-out: IC50 ; value: <25 µM
CNC(=O)c1c(-c2ccc(F)cc2)oc2cc(N(C)S(C)(=O)=O)c(OCC(C)O)cc12 ; agent: Hepatitis C virus ; target: Nonstructural protein 5B ; read-out: IC50 ; value: ≤0.5 µM
O=C(NCc1cncs1)Nc1cscc1-c1nc(C(=O)O)c(O)c(=O)[nH]1 ; agent: Hepatitis C virus ; target: HCV polymerase ; read-out: IC50 ; value: <25 µM
COc1ccc(-c2cc(NS(=O)(=O)c3ccc(C)cc3)c(C(N)=O)s2)cc1 ; agent: Hepatitis C virus ; target: NS3 ATPase ; read-out: IC50 ; value: 5–20 µM
CC[C@@H](C=O)NC(=O)[C@@H]1C[C@@H](OCc2ccccc2)CN1C(=O)[C@@H](NC(=O)c1c[nH]c2ccccc12)C(C)C ; agent: Hepatitis C virus ; target: NS3 protease ; read-out: Ki ; value: 1–100 µM
O=C(N[C@@H](Cc1c[nH]c2ccccc12)C(=O)O)c1cnn2c(C3CCCCC3)c(-c3ccccc3)cnc12 ; agent: Hepatitis C virus ; target: RNA-dependent RNA polymerase ; read-out: IC50 ; value: <1 µM
CC(NC(=O)c1ccc2c(c1)nc(-c1ccc3nc(-c4ccccc4)cnc3c1)n2C1CCCCC1)C(=O)O ; agent: Hepatitis C virus ; target: NS5B polymerase ; read-out: inhibition ; tested at: 33 µM ; value: 83.24%
O=C(O)c1cc2nc(-c3ccc(-c4ccc5c(c4)OCO5)cc3)c(C3CCCCC3)c(=O)n2[nH]1 ; agent: Hepatitis C virus ; target: RNA-dependent RNA polymerase ; read-out: IC50 ; value: 1–10 µM
CNC(=O)c1c(-c2ccc(F)cc2)oc2ccc(OCc3cccc(C(=O)OC)c3)cc12 ; agent: Hepatitis C virus ; target: Nonstructural protein 5B ; read-out: IC50 ; value: ≤0.5 µM
COc1ccc(-c2cc(C(=O)O)nc3cc(-c4ccccc4)nn23)cc1 ; agent: Hepatitis C virus ; target: RNA-dependent RNA polymerase ; read-out: IC50 ; value: >10 µM
O=C(O)c1sc(-c2ccccc2)cc1N(Cc1ccc(Cl)cc1)C(=O)C1CC1 ; agent: Hepatitis C virus ; target: NS3 ATPase ; read-out: IC50 ; value: 5–20 µM
O=C(O)c1cc2nc(-c3ccc(F)cc3)cc(-c3ccccc3)n2n1 ; agent: Hepatitis C virus ; target: RNA-dependent RNA polymerase ; read-out: IC50 ; value: >10 µM
O=C(Nc1cscc1-c1nc(C(=O)O)c(O)c(=O)[nH]1)NS(=O)(=O)c1ccc(Cl)cc1 ; agent: Hepatitis C virus ; target: HCV polymerase ; read-out: IC50 ; value: <25 µM